The results in this text go back to PubChem BioAssay AID720569 (National Center for Advancing Translational Sciences (NCATS), 2013).

In the assay the test system is pyruvate kinase (Trypanosoma brucei). Description: qHTS of Trypanosoma Brucei Inhibitors: Confirmatory Assay for Cherry-picked Compounds. Note: nearly all actives have a fitted effect of over 70% in size. The note with it: recombinant TbPYK, Kinase-Glo ATP luminescence. From the text:
Members of the Trypanosomatidae family of parasitic protozoans cause a spectrum of diseases throughout the tropical and subtropical world. Sleeping sickness, caused by two subspecies of Trypanosoma brucei, is endemic to areas of sub-Saharan Africa, while Chagas' disease, a manifestation of Trypanosoma cruzi infection, is prevalent throughout Central and South America. In addition, many species of Leishmania are responsible for a range of cutaneous and visceral diseases, causing ulcers, destructive lesions and kalaazar, a lethal infection of the viscera. These diseases cause severe public health and economic burdens on populations that are often already caught in a tragic cycle of poverty, poor nutrition and disease. Collectively, parasites of the trypanosomatid family infect 30 million people worldwide (~500 million live in endemic areas), and account for ~130K deaths annually. […]
Two uL of TbPYK/substrate buffer (columns 1-3, 5-48) are dispensed into Greiner white solid bottom 1536-well assay plates; column 4 receives only TEA buffer as 0x TbPYK controls. […] Kinase-Glo Plus reagent is added (3 uL) and plates incubated for 10 minutes, before being transferred to a ViewLux high-throughput CCD imager (PerkinElmer) wherein single end-point measurements of luminescence are acquired using a clear filter. […]
In general terms: Quantitative high-throughput screening tests each substance at several concentrations.

The list shows a part of the results, in another mix than the full data. Results filed as inconclusive are left out. Activity calls are given as the source filed them. Calls come from the whole dose curve; as a rule, active = well fitted inhibition curve with a large enough effect; inconclusive = small, poorly fitted or top-dose-only effect; inactive = no such curve, though single readings can be large or run the other way.
Potency is the fitted concentration of half-maximal effect.

`Cc1cc(SC(NC(=O)c2ccccc2)C(Cl)(Cl)Cl)nc(C(C)C)n1` (stereo unspecified): the Potency was active: 17.8 µM.
